# Percent effect of library compounds

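Growth of Mycobacterium tuberculosis over 4 days (cholesterol / DPPC medium with tyloxapol); the read-out is not stated. Tested at 500 µM. Direction is inferred from retests: higher values go with more growth inhibition. Size under these conditions: about 18,000 compounds, about 900 of them at 50% or above in at least one test.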

Values are the deposited “Percent Effect”, in %. The controls that fix the scale are not given in the record; negative values are as filed. This is part of a subset picked to be rich in strong results.

{"smiles": "O=C1CCC(Nc2nc(-c3ccccc3)ns2)CN1", "stereo": "configuration not stated", "effect": 50.83}
{"smiles": "CCC(=O)Nc1ccc(CN2CCOCC2)c(Cl)c1", "effect": 6.286}
{"smiles": "Cc1cc(C(=O)NC(C)(C)CO)cc(C)c1F", "effect": 10.03}
{"smiles": "NCc1ccc(C(=O)NC2CC2)cc1", "effect": 3.162}
{"smiles": "CNC(C(N)=O)c1cccc(Br)c1", "stereo": "configuration not stated", "effect": 0.2529}
{"smiles": "O=C(N[C@H]1C[C@@H]2OCC[C@H]12)c1cc(O)ccc1F", "effect": 7.276}
{"smiles": "CN(Cc1ccco1)C(=O)c1cc(C2CC2)[nH]n1", "effect": 69.93}
{"smiles": "COCCSc1nncn1CCc1ccccn1", "effect": 9.917}
{"smiles": "CCCC(C#N)NC(=O)c1ccn(-c2ccccc2)n1", "stereo": "configuration not stated", "effect": 89.54}
{"smiles": "Cc1cnccc1NCCNC(=O)c1ccncc1", "effect": 6.63}
{"smiles": "Cc1ccc2[nH]c(C(C)N)nc2c1", "stereo": "configuration not stated", "effect": -4.033}
{"smiles": "COC(=O)[C@@H]1C[C@@H](O)CN1C(C)Cc1ccsc1", "stereo": "some centres not stated", "effect": 36.88}
{"smiles": "CN(CC(N)=O)Cc1cccc(C#N)c1", "effect": 18.5}
{"smiles": "CCCNC(=O)c1cccc(CN)c1", "effect": 2.574}
{"smiles": "Nc1nnc(SCc2ccc(Cl)s2)[nH]1", "effect": 61.13}
{"smiles": "NCCC(=O)N1CCCC(CCc2ccc(F)cc2)C1", "stereo": "configuration not stated", "effect": 67.15}
{"smiles": "Cc1ccccc1C(=O)OCc1nc(N)nc(N)n1", "effect": 10.84}
{"smiles": "CC(=O)OCc1cc(=O)n2ccsc2n1", "effect": 0.2113}
{"smiles": "COc1ncccc1CN(C)C(=O)CNC(C)=O", "effect": -5.031}
{"smiles": "CCc1ccc(CN2CCN(C(=O)C(C)N)CC2)s1", "stereo": "configuration not stated", "effect": 4.359}
{"smiles": "CC(C)C1CCCN1CCN", "stereo": "configuration not stated", "effect": 2.767}
{"smiles": "CN(C)c1ccc(CN2CCS(=O)(=O)CC2)cn1", "effect": 3.19}
{"smiles": "Fc1cccnc1NCc1cccc2c1OCCCO2", "effect": -3.062}
{"smiles": "CN1CCCN(C(=O)c2ccc3ccccc3n2)CC1", "effect": 4.081}
{"smiles": "Cc1cccc(C(=O)NCc2cccc(O)c2)n1", "effect": 56.25}
{"smiles": "CN(Cc1ccccc1Br)C(=O)c1nccnc1N", "effect": 33.17}
{"smiles": "CS(=O)(=O)N(CC(N)=O)c1cc(Cl)cc(Cl)c1", "effect": -13.89}
{"smiles": "O=C(CCC(F)(F)F)NCCNC1CC1", "effect": 35.49}
{"smiles": "Cc1nccn1CCCN1CCN(C2CCNC2)CC1", "stereo": "configuration not stated", "effect": -10.19}
{"smiles": "CN(C)C(=O)CCCOc1nc(C(C)(C)C)no1", "effect": 17.98}
{"smiles": "COc1ccnc(C(N)=O)c1", "effect": 5.38}
{"smiles": "CNc1cc(-c2cccc(OC)c2)[nH]n1", "effect": -2.59}
{"smiles": "NCc1cn2cc(Br)ccc2n1", "effect": 26.55}
{"smiles": "CC(C)(C)c1cnc(CN2CCOCC2C(N)=O)o1", "stereo": "configuration not stated", "effect": 33.66}
{"smiles": "CC(O)Cn1cccn1", "stereo": "configuration not stated", "effect": 3.993}
{"smiles": "CC(=O)N(CCc1ccccc1)Cc1ccncc1", "effect": -1.363}
{"smiles": "CN(C)CC1CCN(C(=O)c2ccc(O)c(Cl)c2)CC1", "effect": -10.04}
{"smiles": "NCC[C@@H]1CCC(=O)N1", "effect": -5.406}
{"smiles": "OC(Cn1nnnc1-c1ccccn1)CC(F)(F)F", "stereo": "configuration not stated", "effect": -4.149}
{"smiles": "CCn1c(SCC(=O)NC)nc2ccccc2c1=O", "effect": -9.895}
{"smiles": "COc1cccc(OC(C)CN)c1", "stereo": "configuration not stated", "effect": 6.132}
{"smiles": "CSCCC(CO)NC(=O)c1occc1C(C)C", "stereo": "configuration not stated", "effect": 63.62}
{"smiles": "Cc1ccnc(NCCS(=O)(=O)NCC2CCC2)c1", "effect": 68.25}
{"smiles": "CSCC(CCO)NC(=O)c1cc(F)ccc1O", "stereo": "configuration not stated", "effect": -6.077}
{"smiles": "CCOc1ccc(S(=O)(=O)NCCCO)cc1", "effect": 3.48}
{"smiles": "Cc1ccc(CCCC(=O)N(C)CC(N)=O)cc1", "effect": 28.35}
{"smiles": "CCCc1ccc(CN2C[C@H](OCC)[C@@H](O)C2)o1", "effect": 81.54}
{"smiles": "NCCCOc1ncc(C(F)(F)F)cc1Cl", "effect": 60.63}
{"smiles": "COc1cccc(CN)n1", "effect": 6.173}

5 of the entries, repeated:

{"smiles": "O=C(CCC(F)(F)F)NCCNC1CC1", "effect": 35.49}
{"smiles": "Cc1cccc(C(=O)NCc2cccc(O)c2)n1", "effect": 56.25}
{"smiles": "CSCCC(CO)NC(=O)c1occc1C(C)C", "stereo": "configuration not stated", "effect": 63.62}
{"smiles": "CN(Cc1ccco1)C(=O)c1cc(C2CC2)[nH]n1", "effect": 69.93}
{"smiles": "CN1CCCN(C(=O)c2ccc3ccccc3n2)CC1", "effect": 4.081}

Data taken from ChEMBL document CHEMBL3988442, “University of Dundee, Small-Polar-MMV Screening Library” (2021).